# Values from PubChem BioAssay AID504761 (Drosophila RNAi Screening Center, 2011).
# Aim: 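Genome-wide fly cell screen for genes dengue virus requires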 (primary screen)
# Cells: D.Mel-2 cells from Drosophila
# Knock-down reagent: long dsRNA against Drosophila genes
# Treatment: infection with dengue virus type 2; dose and infection time not stated
# Read-out: 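Per well on two replicate plates, imaging gave the percent of cells positive for viral envelope protein, ranked by infection, and a nuclear count of cells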
# Direction: infection score: higher = more virus-infected cells; cell count: higher = more cells in the well
# Rule for the call: 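Low infection ranks in the two replicates (chance level up to 0.065) followed by a retest with a 1.5-fold or larger significant decrease, p below 0.05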
# Meaning of the calls: active = confirmed: knock-down lowers infection; inactive = not picked or not confirmed
# The deposit covers about 22,000 reagents; shown is an unselected part of those that have a named target and a result. Over the whole deposit, 116 (0.52%) were called active. 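Calls depend on retest data that are not deposited; infection was ranked per plate without normalising between plates; the unit of the infection score is not given.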 Raw values vary from plate to plate and are shown uncorrected. Names joined by + are all predicted targets of the reagent. Not stated in the record: the amount of reagent, the time to read-out.
Target gene,PubChem SID,"infection score, replicate 1","infection score, replicate 2","cell count, replicate 1","cell count, replicate 2",activity call
Tpst,SID104198781,0.48,,6502,6221,inactive
Tpst,SID104199488,11.2,9.15,6336,6692,inactive
Tpst,SID104199515,4.56,8.69,6573,6606,inactive
Tpst,SID104203536,17.4,12.8,4568,4206,inactive
Tpst,SID104203668,4.7,11.6,6958,6217,inactive
Tpst,SID104203968,4.84,17.1,5802,4398,inactive
mRpL46,SID104188183,5.02,2.24,4923,5407,inactive
Syx1A,SID104195151,3.48,4.07,3136,3343,inactive
Syx1A,SID104201269,2.61,14.3,3723,4273,inactive
COX6B,SID104199382,1.87,1.93,5679,5691,inactive
COX6B,SID104205953,9.34,9.49,5912,5445,inactive
bark,SID104180427,2.85,2.48,6663,6810,inactive
bark,SID104205555,6.47,13.6,6703,6733,inactive
CG1213,SID104191983,5.82,3.13,6294,6380,inactive
CG13014,SID104199325,11.2,5.12,5996,7030,inactive
CG13014,SID104203200,7.67,4.57,6469,6041,inactive
tna,SID104202593,1.63,3.46,6448,7195,inactive
tna,SID104208074,,22.7,352,6020,inactive
Bsg,SID104180802,0.17,,5743,5704,inactive
Bsg,SID104180803,3.53,9.12,6179,6764,inactive
ICA69,SID104191413,2.02,4.58,6446,5853,inactive
DCTN5-p25,SID104183317,26.8,15,5796,5461,inactive
DCTN5-p25,SID104205411,5.08,1.64,6457,6203,inactive
bonsai,SID104184245,12.5,16.9,5041,4945,inactive
bonsai,SID104203052,4.06,3.64,5564,5798,inactive
Dtg,SID104195790,4.56,16.8,1513,5261,inactive
Dtg,SID104205491,10.2,22.7,6329,6232,inactive
CG8441,SID104186972,22.8,15.7,6155,5445,inactive
MFS3,SID104180456,1.16,1.5,6204,6582,active
MFS3,SID104207145,21.8,10.3,5398,5367,inactive

Entries listed so far whose gene name starts with S or s:
Target gene,PubChem SID,"infection score, replicate 1","infection score, replicate 2","cell count, replicate 1","cell count, replicate 2",activity call
Syx1A,SID104195151,3.48,4.07,3136,3343,inactive
Syx1A,SID104201269,2.61,14.3,3723,4273,inactive

Continued.
Target gene,PubChem SID,"infection score, replicate 1","infection score, replicate 2","cell count, replicate 1","cell count, replicate 2",activity call
CG5079,SID104202418,2.41,6.96,6101,6333,inactive
fliI,SID104200370,27.2,5.13,4176,6378,inactive
RhoGEF64C,SID104188110,4.3,2.9,6657,6892,inactive
RhoGEF64C,SID104188111,1.31,1.77,5935,5552,inactive
RhoGEF64C,SID104204483,3.15,7.36,6406,6359,inactive
CG31638,SID104182061,1.52,2.75,6127,6736,inactive
CG31638,SID104183051,0.84,2.66,6301,6846,inactive
CG31638,SID104203628,1.1,3.48,6113,6092,inactive
Lfg,SID104186645,7.1,8.06,6779,6461,inactive
CG10953,SID104206811,19.7,14.1,5996,5361,inactive
CG5455,SID104195597,8.78,1.35,6300,6499,inactive
CG5455,SID104205933,11.8,7.2,6683,6225,inactive
atl,SID104195881,4.73,2.55,5960,6983,inactive
atl,SID104204785,2.56,2.18,6181,6422,inactive
link,SID104186160,4.57,7.14,6036,5602,inactive
link,SID104202772,3.5,3.3,7010,7051,inactive
mRpL2,SID104190688,8.68,11.4,5517,4724,inactive
Atac2,SID104181845,6.6,26.4,6412,5618,inactive
CG13117,SID104182007,7.28,5.83,6267,5985,inactive
CG13117,SID104205527,7.93,14.8,6430,6086,inactive
Idh3a,SID104199238,7.03,1.09,5649,6171,inactive
Idh3a,SID104206847,2.49,1.68,723,475,inactive
CG13003,SID104199314,11,4.45,6136,6427,inactive
SkpF + CG5357 (retired record),SID104183912,9.98,6.7,6935,6928,inactive
CG13622,SID104194416,1.57,6.22,6741,6299,inactive
CG13622,SID104205626,13.1,1.32,5944,6731,inactive
CG13284,SID104182048,10.8,2.27,1918,6923,inactive
egh,SID104198563,11.5,5.04,5964,6601,inactive
egh,SID104208442,23.8,5.91,5535,5722,inactive
CG3526,SID104197032,0.08,0.01,6411,6714,inactive
CG3526,SID104198428,,15.3,313,5129,inactive
CG3526,SID104203184,5.38,3.99,5674,6088,inactive
Ccdc58,SID104190010,8.62,9.01,6088,6936,inactive
CG14569,SID104191522,8.01,12.3,6601,6652,inactive
CG14785,SID104198396,14.1,2.57,5625,6651,inactive
CG13877 + pyx,SID104188139,18.5,,5792,431,inactive
Mpcp1,SID104187129,4.34,0.82,5804,6111,inactive
cv-c,SID104194761,1.13,4.41,6895,6379,inactive
cv-c,SID104194762,2.36,4.59,6229,6336,inactive
cv-c,SID104194764,4.33,16.6,6419,5430,inactive
cv-c,SID104196220,2.52,4.19,6347,6712,inactive
cv-c,SID104202556,0.62,0.96,6334,7106,inactive
cv-c,SID104202898,3.38,4.84,5733,6153,inactive
cv-c,SID104204356,7.96,3.42,6661,4182,inactive
cv-c,SID104205560,7,2.91,6243,6323,inactive
